Measurements taken from paper PMC7990223.

Tests used:
[1] = target: mACE2 (F83Y) (mouse) (UniProt Q8R0I0)
[2] = target: mACE2 (F83Y/H353K) (mouse) (UniProt Q8R0I0)
[3] = target: mACE2 (H353K) (mouse) (UniProt Q8R0I0)

S1 domain of the SARS-CoV spike protein C-terminally fused with Fc (from UniProt P59594 14-667)
percent of ACE2-expressing (zsGreen1+) cells positive for S1-Fc [1]: 63.7% | percent of ACE2-expressing (zsGreen1+) cells positive for S1-Fc [2]: 81.8% | percent of ACE2-expressing (zsGreen1+) cells positive for S1-Fc [3]: 83.1%
